In PubChem BioAssay AID485367 (National Center for Advancing Translational Sciences (NCATS), 2010):
The entries are a selection whose mix differs from that of the whole data set. Activity calls are given as the source filed them. Calls come from the whole dose curve; as a rule, active = well fitted inhibition curve with a large enough effect; inconclusive = small, poorly fitted or top-dose-only effect, or effect the other way; inactive = flat fitted curve, though single readings scatter. Where a call stands in place of a potency, no number is given.

Sequences of proteins named here, by UniProt entry; tags and fusion partners are left off. A change or cut given only in a name is not applied to a line headed by its entry.
UniProt O15648: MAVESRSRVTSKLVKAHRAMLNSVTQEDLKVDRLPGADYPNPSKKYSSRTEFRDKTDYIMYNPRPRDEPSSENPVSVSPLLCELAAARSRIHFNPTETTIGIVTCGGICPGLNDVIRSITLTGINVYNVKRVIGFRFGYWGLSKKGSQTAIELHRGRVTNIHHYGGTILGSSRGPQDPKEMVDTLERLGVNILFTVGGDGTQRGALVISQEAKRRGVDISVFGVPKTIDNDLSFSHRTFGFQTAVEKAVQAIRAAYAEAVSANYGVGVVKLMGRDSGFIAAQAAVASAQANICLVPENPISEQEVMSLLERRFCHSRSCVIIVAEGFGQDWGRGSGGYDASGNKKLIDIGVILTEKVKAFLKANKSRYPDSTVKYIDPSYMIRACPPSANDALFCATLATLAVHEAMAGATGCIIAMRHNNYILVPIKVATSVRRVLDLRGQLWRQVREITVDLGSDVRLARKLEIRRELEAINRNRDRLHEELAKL

Target: ATP-dependent 6-phosphofructokinase (Trypanosoma brucei brucei) (UniProt O15648)
Assay: qHTS Assay to Find Inhibitors of T. brucei phosphofructokinase; note: nearly all actives have a fitted effect of over 60% in size
Details: T. brucei PFK, ADP-Glo luminescence; series mostly up to 57.5 µM
Text: NIH Molecular Libraries Probe Production Network [MLPCN] NIH Chemical Genomics Center [NCGC] Grant: 1 R03 MH092153-01 PI Name: Malcolm Walkinshaw, University of Edinburgh NCGC Assay Overview: Various species of the protozoan family Trypanosomatidae are responsible for a range of serious human diseases in tropical and subtropical areas of the world. […] Many of the disorders caused by trypanosomatids are fatal if left untreated, but most currently used drugs are inefficient and toxic. […] Oxidative metabolism involving the mitochondrial tricarboxylic acid cycle and oxidative phosphorylation are repressed in these parasites, and recent RNA interference (RNAi) experiments have shown that even partial depletion of certain individual glycolytic enzymes can lead to the death of cultured parasites. One such glycolytic enzyme, phosphofructokinase (PFK), catalyzes the formation of fructose-1,6-bisphosphate (F1,6BP) and ADP from fructose-6-phosphate (F6P) and ATP, and in many metabolic circumstances makes an important contribution to the control of flux through the glycolytic pathway. As a specific glycolytic target, PFK is particularly attractive as it catalyzes the first irreversible step in glycolysis, and structural and kinetic studies have shown very substantial and essential differences from corresponding host enzymes, allowing for the discovery of parasite-selective inhibitors. The goal of this screen is to find small-molecule inhibitors of T. brucei PFK using a biochemical assay that measures PFK activity as a function of ADP production. A luminescence-based assay for T. brucei PFK activity has been developed which uses luciferase to detect production of ADP. Traditional luciferase-based nucleotide detection reagents rely on ATP production as a direct substrate for the luciferase reaction; however, PFK catalyzes the transfer of a phosphate from ATP to F6P, resulting in the net depletion of ATP. To directly measure the ADP product of the PFK reaction, we used the ADP-Glo detection kit (Promega), which utilizes two separate reactions to 1) deplete all remaining uncatalyzed ATP and 2) convert all remaining ADP to ATP, which is then detected through a traditional luciferase-coupled reaction. Compounds were screened as a concentration-titration series that ranged from 57 uM to 0.7 nM.
NCGC Assay Protocol Summary: NCGC Assay Protocol Summary: Substrate buffer was dispensed into white, solid 1536-well plates at 3uL/well in 0.1M triethanolamine (TEA) buffer, pH 8.0, containing final concentrations of 5 mM MgCl2, 0.01% Tween20, 0.5 mM fructose-6-phosphate (F6P) and 0.1mM ATP. Then, 23 nL of compounds or DMSO were delivered to each well using a pin tool. One uL T. brucei PFK (0.1M TEA, 0.01% Tween20, 0.1% bovine serum albumin (BSA) and 1.25nM PFK, final concentrations) was then dispensed, and plates were incubated at room temperature for 45 min. The luminescent detection reagent, ADP-Glo (Promega), was then added in two steps: the first reagent, ADP-Glo (which converts remaining uncatalyzed ATP), was added at 2.5uL/well and incubated for ten minutes at room temperature, and the second component, Kinase Detection reagent (which converts ADP to ATP as a substrate for luciferase-based luminescence), was added immediately after at 5uL/well, followed by one final ten minute room temperature incubation. The plates were measured on a ViewLux plate reader for luminescent signal using a clear filter with a one second exposure. The %Activity was determined from the corrected luminescence values. As no specific T. brucei PFK inhibitors have been identified in the literature, 1x (1.25nM) and 0x PFK enzyme controls (untreated) were included to normalize %Activity of identified inhibitors; 0x enzyme values corresponded to 100%Activity (full inhibition), while 1x PFK enzyme values were used to normalize 0%Activity (no inhibition). Concentration-response curves were fitted to the signals arising from the resulting luminescence. […]
Potency is the fitted concentration of half-maximal effect.

Row | SMILES | Potency
1 | COP1(=S)c2c(C)nn(CCC#N)c2N=C(c2ccc(F)cc2)N1C (stereo unspecified) | inactive
2 | O=C(COc1ccccc1)OC1CN2CCC1CC2 (stereo unspecified) | inactive
3 | O=C(Nc1ccncc1[N+](=O)[O-])c1ccc([N+](=O)[O-])cc1[N+](=O)[O-] | inactive
4 | CCOC(=O)c1ccc(NC(=O)C(C)(CCl)SC)cc1 (stereo unspecified) | inactive
5 | O=C(OC1CN2CCC1CC2)c1cccc([N+](=O)[O-])c1 (stereo unspecified) | inactive
6 | CCC(C)N(CC(C)C)C(=S)SC(NC(C)=O)C(Cl)(Cl)Cl (stereo unspecified) | inactive
7 | CCOC(=O)Nc1ccc([As](=O)(O)O)c(O)c1 | inactive
8 | CCCCOc1ccc(C(=O)NCC2(N3CCCCC3)CCCCC2)cc1OC | inactive
9 | Cc1cc(SC(NC(=O)c2ccccc2)C(Cl)(Cl)Cl)nc(C(C)C)n1 (stereo unspecified) | inactive
10 | CCOC(=O)Nc1cccc([As](=O)(O)O)c1 | inactive
11 | O=[N+]([O-])c1ccc(Nc2ccc(Oc3ccc([N+](=O)[O-])cc3[N+](=O)[O-])cc2)c([N+](=O)[O-])c1 | inactive
12 | O=P(Nc1ccccn1)(c1cccc2ccccc12)c1cccc2ccccc12 | inactive
13 | O=[As](O)(c1ccc(O)cc1)c1ccccc1O | inactive
14 | C[As](=O)(O)c1cccc(C(=O)O)c1 | inactive
15 | COc1cc(C(=O)NCC2(N3CCOCC3)CCCCC2)ccc1OCC(C)C | inactive
16 | Cc1ccc2nc3c(c(C)c2c1)CC(C(Cl)Cl)S3 (stereo unspecified) | inactive
17 | Cc1ccc(OP(=O)(Nc2ccc([N+](=O)[O-])cn2)Oc2ccc(C)cc2)cc1 | inactive
18 | CC(C)c1ccc(OP(=O)(Nc2ccccn2)Oc2ccccc2F)cc1 (stereo unspecified) | inactive
19 | ClCCSc1nnc(-c2cccnc2)o1 | inactive
20 | CCN(CC)C(=S)SC(NC=O)C(Cl)(Cl)Cl (stereo unspecified) | inactive
21 | CC(C)NC(=O)NP(=O)(Oc1ccccc1)Oc1ccccc1 | inactive
22 | O=[N+]([O-])c1cc([N+](=O)[O-])c(-c2ccn[nH]2)s1 | inactive
23 | O=C(OC1CN2CCC1CC2)C12CC3CC(CC(C3)C1)C2 (stereo unspecified) | inactive
24 | Cc1cc(=O)[nH]c(N[N+](=O)[O-])n1 | inactive
25 | Cc1c2c(nc3ccccc13)SC(C(Cl)Cl)C2 (stereo unspecified) | inactive
26 | COc1ccc2nc(NP(=O)(c3ccccc3)c3ccccc3)sc2c1 | inactive

Row | SMILES | Potency
27 | COc1cc(I)ccc1[As](=O)(O)O | inactive
28 | COc1ccc(N/C(=N/P(=O)(N2CCOCC2)N2CCOCC2)N2CCOCC2)cc1 | inactive
29 | COc1cc(C(=O)NCC2(N3CCOCC3)CCCCC2)cc(Cl)c1OC(C)C | inactive
30 | O=[As](O)(O)c1cccnc1 | inactive
31 | CS(=O)(=O)c1ccc(Cl)c(NC(=O)COC(=O)C(O)(c2ccccc2)c2ccccc2)c1 | inactive
32 | O=C(OC1CN2CCC1CC2)c1ccc(Cl)cc1 (stereo unspecified) | inactive
33 | O=[As](O)(c1cccc(O)c1)c1cccc(O)c1 | inactive
34 | CCCOP(=S)(Nc1nc(N)cc(=O)[nH]1)OCCC | inactive
35 | Cc1ccc(NCCc2c([N+](=O)[O-])cc([N+](=O)[O-])cc2[N+](=O)[O-])cc1 | inactive
36 | COc1cc(C2NCCC3(OCCO3)C2(C)C)cc(OC)c1OC (stereo unspecified) | inactive
37 | CCOP(=O)(Nc1cccc2ccccc12)OCC | inactive
38 | CS(=O)(=O)c1cc([N+](=O)[O-])c2no[n+]([O-])c2c1 | inactive
39 | CCOP1(=S)c2c(C)nn(CCC#N)c2N=C(c2ccccc2F)N1C (stereo unspecified) | inactive
40 | O=P(Nc1nccs1)(c1ccccc1)c1nc2ccccc2s1 (stereo unspecified) | active: 26.9 µM
41 | O=P(Nc1nccs1)(Oc1ccccc1)Oc1ccccc1 | inactive
42 | O=C(O)COc1ccc([As](=O)(O)O)cc1[N+](=O)[O-] | inactive
43 | Nc1ccccc1[As](=O)(O)c1ccccc1 | inactive
44 | NC(=O)Nc1ccc([As](=O)(O)O)cc1 | inactive
45 | O=[N+]([O-])c1ccc2c(c1)nnn2O | inactive
46 | N#CCCN(C(=O)COC(=O)C(O)(c1ccccc1)c1ccccc1)c1ccc(F)cc1 | inactive
47 | CCOP1(=S)c2c(C)nn(CCC#N)c2N=C(c2ccc(F)cc2)N1C (stereo unspecified) | inactive
48 | CN(C(=O)Cc1ccccc1)[C@@H]1CC[C@]2(CCCO2)C[C@H]1N1CCCC1 | inactive
49 | Cc1nn(-c2ccccc2)c2c1P(=O)(N1CCOCC1)N(C)C(c1ccccc1)=N2 (stereo unspecified) | inactive
50 | Cc1ccc(C(=O)OC2CN3CCC2CC3)cc1 (stereo unspecified) | inactive
51 | CC1CCC(C(C)C)C(OP(=O)(Nc2ccccn2)c2ccccc2)C1 (stereo unspecified) | inactive
52 | O=C(/C=C/c1ccccc1)OC1CN2CCC1CC2 (stereo unspecified) | inactive

Row | SMILES | Potency
53 | CN(C)C1(CNC(=O)c2ccc(S(C)(=O)=O)cc2)CCCCC1 | inactive
54 | O=P1(Nc2ncccn2)COc2ccccc2OC1 | inactive
55 | NS(=O)(=O)c1cccc(NC(=O)COC(=O)C(O)(c2ccccc2)c2ccccc2)c1 | inactive
56 | O=P1(Nc2ccc(Br)cn2)COc2ccccc2OC1 | inactive
57 | O=[As](O)(c1cccs1)c1cccs1 | inactive
58 | Cc1ccc(OCC(=O)OC2CN3CCC2CC3)cc1 (stereo unspecified) | inactive
59 | Nc1cccc([As](=O)(O)c2ccccc2)c1 | inactive
60 | CCOP(=O)(Nc1ccc(C)cn1)OCC | inactive
61 | CCC1=CC2Cc3nc4ccc(Cl)cc4c(N)c3C(C1)C2 (stereo unspecified) | inactive
62 | O=P1(Nc2ccccn2)COc2ccccc2OC1 | inactive
63 | CCOP(=O)(NC(=NC(C)c1ccccc1)NC(C)c1ccccc1)OCC (stereo unspecified) | inactive
64 | Clc1n[nH]nc1-c1nn[nH][15n]1 | inactive
65 | CC(C)(C)C(=O)NC(Sc1ncccn1)C(Cl)(Cl)Cl (stereo unspecified) | inactive
66 | COc1ccccc1CNC(=O)COC(=O)C(O)(c1ccccc1)c1ccccc1 | inactive
67 | O=[As](O)(c1ccccc1Br)c1ccccc1Br | inactive
68 | CN(C(=O)Cc1ccc(Cl)c(Cl)c1)[C@@H]1CCCC[C@H]1N1CCCC1 | inactive
69 | CC(C)/C=N\N=C(\N)N[N+](=O)[O-] | inactive
70 | O=P(Nc1nccs1)(c1ccccc1)c1ccccc1 | inactive
71 | CC(C)C(=O)NC(Sc1ccccc1)C(Cl)(Cl)Cl (stereo unspecified) | inactive
72 | c1nnnn1CCn1cnnn1 | inactive
73 | CN(C)C1(CNC(=O)c2ccc(Cl)c(S(N)(=O)=O)c2)CCCCC1 | inactive
74 | O=P(Nc1ccccn1)(c1ccc(Br)cc1)c1ccc(Br)cc1 | inactive
75 | O=P(Nc1nc2ccccc2s1)(c1ccccc1)c1ccccc1 | inactive
76 | C[C@H]1OP(=O)(Oc2ccccc2)[C@H](O)[C@H](O)[C@H]1N=[N+]=[N-] (stereo partly specified) | inactive
